Anti-infective test results gathered from many reports (values: NIAID ChemDB through PubChem).

All rows: growth or infection tests; species: HIV-1; cell line: C8166; measure: EC50

An empty or dashed field is not shown. Neighbouring rows are from separate reports. ECn is the concentration giving n% inhibition of infection, replication or growth. a–b is a range or a potency band.

| SMILES | strain or isolate | changes | read by | conditions | value |
|---|---|---|---|---|---|
| Cc1ccc(-c2c(C(OC(C)C)C(=O)O)c(C)nc3ccc(Cl)cc23)cc1C | - | - | luciferase / reporter gene | - | <20 µM |
| CCN1c2ncc(CCOc3ccc(CC(=O)O)c4c3CCCC4)cc2C(=O)N(C)c2ccc(F)nc21 | WT | - | p24 | - | <0.1 µM |
| CCN1c2ncc(CCOc3ccc(-c4csc(C(=O)O)c4)cc3C)cc2C(=O)N(C)c2cccnc21 | - | RT-K103N Y181C | p24 | - | 0.01–0.05 µM |
| CCN1c2ncc(CCOc3ccc(C(C)C(=O)O)c4ccccc34)cc2C(=O)N(C)c2cccnc21 | WT | - | p24 | - | <0.1 µM |
| Cc1nc2ccc(Cl)cc2c(-c2cncnc2)c1C(OC(C)C)C(=O)O | - | - | luciferase / reporter gene | - | <20 µM |
| CCN1c2ncc(CCOc3ccc(-c4ccc(C(=O)O)s4)cc3C)cc2C(=O)N(C)c2cccnc21 | IIIB | - | p24 | - | <0.01 µM |
| CCN1C(=O)NC(=O)C(C(C)C)C1CC1CC(C)CC(C#N)C1=O | IIIB | - | p24 / ELISA | 20% human serum | 0.00608 µM |
| CC1=C[C@H]2[C@@]3(O)[C@H](C)[C@@H](O)[C@]4(OC(=O)CCCC[C@@H]5SC[C@@H]6NC(=O)N[C@@H]65)[C@H]([C@@H]3C=C(CO)C[C@]2(O)C1=O)C4(C)C | IIIB | - | p24 / ELISA | - | >200 µM |
| CCNC(=O)N1CCc2c(OCCc3cnc4c(c3)C(=O)N(C)c3cccnc3N4CC)ccc(C(=O)O)c2C1 | WT | - | p24 | - | 0.1–1 µM |
| Cc1nc2ccc(Br)cc2c(-c2ccc(Cl)cc2)c1C(O[C@@H](C)C#N)C(=O)O | - | - | luciferase / reporter gene | - | <20 µM |
| CCN1c2nc(C(F)(F)F)ccc2NC(=O)c2cc(CCOc3cc[n+]([O-])c4ccccc34)cnc21 | IIIB | - | p24 | - | 0.0016 µM |
| Nc1nc(NC2CC2)c2ncn([C@H]3C=C[C@@H](CO)C3)c2n1 | RT-K65R M184V | - | cytopathic effect / XTT | - | 11.3 µM |
| CCN1c2ncc(CCOc3ccc(C(=O)O)c4c3CCN(C(=O)OC)C4)cc2C(=O)N(C)c2cccnc21 | - | RT-V106A | p24 | - | 0.1–1 µM |
| CCCc1ccc(-c2c(C(O[C@H](C)CC)C(=O)O)c(C)nc3ccc(Cl)cc23)cc1 | - | - | luciferase / reporter gene | - | <20 µM |
| CCN1c2ncc(CCOc3ccc(C(=O)O)c4c3CCCC4)cc2C(=O)N(C)c2ccc(OC)nc21 | - | RT-K103N Y181C | p24 | - | <0.1 µM |
| CCN1c2ncc(CCOc3ccc(-c4ccc(CC(=O)O)cc4)cc3)cc2C(=O)N(C)c2cccnc21 | IIIB | - | p24 | - | 0.01–0.05 µM |
| Cc1cn([C@H]2C[C@H](N=[N+]=[N-])[C@@H](CO)O2)c(=O)[nH]c1=O | A17 | - | syncytia | - | 0.00763 µM |
| C=C1c2cc(CCOc3ccc(NS(C)(=O)=O)c4ccccc34)cnc2N(CC)c2ncccc2N1C | - | RT-K103N Y181C | p24 | - | <0.1 µM |
| CC1=C[C@H]2[C@@]3(O)[C@H](C)[C@@H](OC(=O)/C=C/c4ccccc4)[C@]4(OC(=O)/C=C/c5ccccc5)[C@H]([C@@H]3C=C(CO)C[C@]2(O)C1=O)C4(C)C | IIIB | - | p24 / ELISA | - | 0.1236 µM |
| CCc1ccc(-c2c(C(OC(C)(C)CC)C(=O)O)c(C)nc3ccc(Cl)cc23)cc1 | - | - | luciferase / reporter gene | - | <20 µM |
| Cc1cn([C@H]2C[C@H](N=[N+]=[N-])[C@@H](CO)O2)c(=O)[nH]c1=O | RF | - | p24 / ELISA | - | 0.08 µg/mL |
| COC(C(=O)O)c1c(C)nc2ccc(Cl)cc2c1-c1ccc(C(F)(F)F)cc1 | - | - | luciferase / reporter gene | - | <20 µM |
| CCCC(=O)O[C@@]12[C@H](OC(=O)/C=C/c3ccc(O)c(OC)c3)[C@@H](C)[C@@]3(O)[C@@H](C=C(CO)C[C@]4(O)C(=O)C(C)=C[C@@H]34)[C@@H]1C2(C)C | IIIB | - | p24 / ELISA | - | 0.0957 µM |
| CCN1c2ncc(CCOc3ccc(C(=O)O)c4c3CCN(S(C)(=O)=O)C4)cc2C(=O)N(C)c2cccnc21 | WT | - | p24 | - | <0.1 µM |
| COc1ccc(/C=C/C(=O)O[C@@]23[C@H](O)[C@@H](C)[C@@]4(O)[C@@H](C=C(CO)C[C@]5(O)C(=O)C(C)=C[C@@H]45)[C@@H]2C3(C)C)cc1OC(C)=O | IIIB | - | p24 / ELISA | - | 9.54 µM |
| CCN1c2ncc(CCOc3ccc(-n4cc(C(=O)O)nn4)cc3C)cc2C(=O)N(C)c2cccnc21 | - | RT-K103N Y181C | p24 | - | >0.05 µM |
| CCN1c2ncc(CCOc3ccc(CC(=O)O)c4c3CCCC4)cc2C(=O)N(C)c2ccc(Cl)nc21 | WT | - | p24 | - | <0.1 µM |
| CC(=O)OCC1=C[C@H]2[C@@H]3C(C)(C)[C@]3(OC(C)=O)[C@H](OC(=O)CCCCn3ccc(=O)n(CCCCC(=O)O[C@@H]4[C@@H](C)[C@@]5(O)[C@@H](C=C(COC(C)=O)C[C@]6(O)C(=O)C(C)=C[C@@H]56)[C@@H]5C(C)(C)[C@]45OC(C)=O)c3=O)[C@@H](C)[C@]2(O)[C@@H]2C=C(C)C(=O)[C@@]2(O)C1 | IIIB | - | p24 / ELISA | - | >200 µM |
| CCN1c2ncc(CCOc3ccc(C(=O)NCC4(C(=O)O)CCCC4)cc3C)cc2C(=O)N(C)c2cccnc21 | IIIB | - | p24 | - | <0.01 µM |
| Cc1nc2ccc(Br)cc2c(-c2ccc(Cl)cc2)c1C(CC(C)C)C(=O)O | - | - | luciferase / reporter gene | - | <20 µM |

The last 2 rows once more:

SMILES | strain or isolate | changes | read by | conditions | value
CCN1c2ncc(CCOc3ccc(C(=O)NCC4(C(=O)O)CCCC4)cc3C)cc2C(=O)N(C)c2cccnc21 | IIIB | - | p24 | - | <0.01 µM
Cc1nc2ccc(Br)cc2c(-c2ccc(Cl)cc2)c1C(CC(C)C)C(=O)O | - | - | luciferase / reporter gene | - | <20 µM